Source: PMC7331731, “Activity of vitamin D receptor agonists against dengue virus” (Scientific Reports, 2020)

Test system: DENV 2
Test: DENV 2 virus titer in supernatant by standard plaque assay (infected HEK293T/17 cells)
Type: cell-based, dengue virus
Conditions: CC50/EC50, HEK293T/17 cells
Procedure: Human embryonic kidney HEK293T/17 (ATCC No. CRL-11268) and human hepatocellular HepG2 (ATCC No. HB-8065) cells were cultured in complete medium, composed of Dulbecco’s modified Eagle medium (DMEM; Gibco BRL) supplemented with 10% heat-inactivated fetal bovine serum (FBS) at 37 °C with 5% CO2. Dengue virus serotype 2 (DENV 2) strain 16681, DENV 1 (strain 16007), DENV 3 (strain 16562), DENV 4 (strain 1036), ZIKV (strain SV0010/15) and JEV (strain BJ1) were all propagated in the Aedes albopictus cell line C6/36 (ATCC No. CRL-1660). Viral progenies in the supernatant were collected and centrifuged at 1,000g to remove cell debris. The virus stocks were kept at − 80 °C until used. Virus titers were determined by standard plaque assay on LLC-MK2 cells (ATCC No. CCL-7).
HEK293T/17 cells were cultured on 6-well plates until 70% confluence was reached under standard conditions. The cells were mock-infected or infected with DENV 2 at a multiplicity (MOI) of 5 for 2 h. After infection, the medium was removed and the infected cells were incubated with appropriate concentrations of the VDR agonists until 24 h.p.i., in parallel with DMSO treated control cells. Experiments were performed independently triplicate.
For time course experiments, under conditions of pre-infection treatment, HEK293T/17 cells were pre-treated with an appropriate concentration of VDR agonists for 1, 3 or 6 h before infection, followed by incubation in complete medium. For treatment post-infection, infected cells were treated with VDR agonists at 0, 1, 3, 6 and 12 h.p.i. The infected cells and supernatant for both pre- and post-treated samples were collected at 24 h.p.i. Experiments were performed independently triplicate.

| Structure (SMILES) | Selective index (SI) |
| --- | --- |
| COc1ccc(CC2N(c3ccc([N+](=O)[O-])cc3)C(=O)C3CCCN32)cc1OC (stereo not shown) [ZD-5] | 51.84 |
| O=C1C2CCCN2C(c2ccco2)N1c1ccc([N+](=O)[O-])cc1 (stereo not shown) [ZD-1] | 29.71 |
| O=C1C2CCCN2C(c2ccc(O)cc2)N1c1ccc([N+](=O)[O-])cc1 (stereo not shown) [ZD-6] | 24.46 |
| CSCCC(N)C(=O)Oc1ccc(C2N(c3ccc([N+](=O)[O-])cc3)C(=O)C3CCCN32)cc1.Cl (stereo not shown) [ZD-3] | 52.75 |
| CSCCC(NC(=O)OC(C)(C)C)C(=O)Nc1ccc(C2N(c3ccc([N+](=O)[O-])cc3)C(=O)C3CCCN32)cc1 (stereo not shown) [ZD-4] | 15.53 |
| COc1cc(C2N(c3ccc([N+](=O)[O-])cc3)C(=O)C3CCCN32)ccc1O (stereo not shown) [ZD-2] | 26.65 |
| CSCCC(NC(=O)OC(C)(C)C)C(=O)Oc1ccc(C2N(c3ccc([N+](=O)[O-])cc3)C(=O)C3CCCN32)cc1 (stereo not shown) [ZD-20] | 5.98 |
